Measured values from several laboratories, pooled; numbers as filed in NIAID ChemDB.

All rows: tests in culture

Zones are inhibition diameters on agar. Blank or dashed fields: not listed here. A number after MIC or MFC names an inhibition level or a share of isolates. Lines come from different laboratories, so protocols vary. Inhibition is in % at the dose shown (toxicity tests: loss of growth or viability). a–b is a range or a potency band.

smiles	tested at	species	strain or isolate	measure	conditions	read by	value
CCCCCCCCCCCCCCCCN(C(=O)Nc1ccccc1)[C@@H](CC(=O)OCC)C1O[C@@H]2OC(C)(C)O[C@@H]2[C@H]1OC		Mycobacterium aurum		MIC			>25 µg/mL
Fc1cc(Nc2nnc(-c3ccncc3)o2)ccc1Br		Mycobacterium kansasii	My 235/80	MIC100	14 d	broth dilution	>125 µM
CCCCCCCCC(CCCCCCCC)NC(=O)NC(CCC(=O)O)(CCC(=O)O)CCC(=O)O		Mycobacterium marinum	ATCC 927	MIC			27 µg/mL
COc1ccc(/C=N/n2c(C)nn(Cc3cn(CCn4cc(Cn5nc(C)n(/N=C/c6ccc(OC)cc6)c5=O)nn4)nn3)c2=O)cc1	20 mg/mL	Mycobacterium luteus		zone		agar diffusion	1.21 mm
O=C(NCc1ccc(-n2ccnc2)cc1)c1c(Cl)nc2ccccn12		Mycobacterium ulcerans		MIC50		fluorescence	>10 µg/mL
COc1ccc2oc(=S)n(-c3ccc(C(F)(F)F)cc3)c(=S)c2c1		Mycobacterium kansasii	My 235/80	MIC	21 d		32 µM
C/C=C/C/C=C/CCC(=O)[C@H]1O[C@H]1C(N)=O		Mycobacterium bovis	BCG (PMV261::KASAB)	MIC			0.2 µg/mL
CC(NCCNC(C)c1ccccc1)c1ccccc1	250 µg/mL	Mycobacterium smegmatis	ATCC 607	inhibition			100%
COc1ccc(-c2n[nH]c(C)c2-c2ccc(Cl)cc2)c(O)c1		Mycobacterium marinum		MIC		visual reading	50 µg/mL
CCCCCCCCCCN(CCCCCCCCCC)C(=O)NC(CCC(=O)O)(CCC(=O)O)CCC(=O)O		Mycobacterium chelonae	EO-P-1	MIC			54 µg/mL
C[C@@H]1CN(c2c(F)c(N)c3c(=O)c(C(=O)O)cn(C4CC4)c3c2F)C[C@H](C)N1		Mycobacterium avium intracellulare	N-486 (HIV-)	MIC			4 µg/mL
CCCCCN(CCCCC)CCNC(C)C	250 µg/mL	Mycobacterium smegmatis	ATCC 607	inhibition			100%
O=C(OCCNC(=O)c1c(Cl)nc2ccccn12)c1ccc(C(F)(F)F)cc1		Mycobacterium ulcerans		MIC50		fluorescence	>10 µg/mL
CCCCCCCCCCCCCCCC(=O)NC(CCC(=O)O)(CCC(=O)O)CCC(=O)O		Mycobacterium abscessus	AAy-P-1	MIC			144 µg/mL
Cc1nn(Cc2cn(CCn3cc(Cn4nc(C)n(/N=C/c5cccs5)c4=O)nn3)nn2)c(=O)n1/N=C/c1cccs1	20 mg/mL	Mycobacterium luteus		zone		agar diffusion	1.787 mm
CO[C@H]1/C=C/O[C@@]2(C)Oc3c(C)c(O)c4c(=O)c(c5oc6cc(N7CCN(CC(C)C)CC7)cc(=O)c6nc5c4c3=C2O)NC(=O)/C(C)=C\C=C\[C@H](C)[C@H](O)[C@@H](C)[C@@H](O)[C@@H](C)[C@H](OC(C)=O)[C@@H]1C		Mycobacterium avium intracellulare	N-486 (HIV-)	MIC			0.016 µg/mL
Cc1nn(Cc2cn(CCCCCCCCn3cc(Cn4nc(C)n(/N=C/c5cccs5)c4=O)nn3)nn2)c(=O)n1/N=C/c1cccs1	20 mg/mL	Mycobacterium luteus		zone		agar diffusion	0.6 mm
C=C/C(C)=C/[C@@]1(C)SC(=O)C(C)=C1O		Mycobacterium bovis	BCG (PMV261)	MIC			30 µg/mL
CO[C@H]1/C=C/O[C@@]2(C)Oc3c(C)c(O)c4c(O)c(c(/C=N/N5CCN(C6CCCC6)CC5)c(O)c4c3C2=O)NC(=O)/C(C)=C\C=C\[C@H](C)[C@H](O)[C@@H](C)[C@@H](O)[C@@H](C)[C@H](OC(C)=O)[C@@H]1C		Mycobacterium avium intracellulare	74	MIC			0.125 µg/mL
COc1ccc2oc(=S)n(-c3ccc(F)cc3)c(=S)c2c1		Mycobacterium kansasii	My 235/80	MIC	21 d		16 µM
CCCCCCCc1ccc(NC(=O)NNC(=O)c2ccncc2)cc1		Mycobacterium kansasii	My 235/80	MIC100	21 d	broth dilution	125 µM
CC[C@H]1OC(=O)[C@H](C)[C@@H](O[C@H]2C[C@@](C)(OC)[C@@H](O)[C@H](C)O2)[C@H](C)[C@@H](O[C@@H]2O[C@H](C)C[C@H](N(C)C)[C@H]2O)[C@](C)(O)C[C@@H](C)C(=O)[C@H](C)[C@@H](O)[C@]1(C)O		Mycobacterium fortuitum	25 isolates	MIC50			>8 µg/mL
O=C(NNC(=O)c1ccncc1)Nc1ccc(Cl)c(C(F)(F)F)c1		Mycobacterium kansasii	My 6509/96	MIC100	7 d	broth dilution	62.5 µM
CC1CN(c2cc3c(cc2F)c(=O)c(C(=O)O)cn3-c2ccc(F)cc2F)CCN1		Mycobacterium fortuitum	ATCC 6841	MIC			8 µg/mL
CC1(C)OC2OC([C@@H]3CC(=O)N(c4ccc(Cl)cc4)C(=O)N3)[C@H](Oc3ccccc3)C2O1		Mycobacterium aurum		MIC			>25 µg/mL
NNC(=O)c1ccncc1		Mycobacterium kansasii	My 6509/96	MIC100	7 d	broth dilution	4 µM
CC(C)CC(C)NCCNC(C)CC(C)C	250 µg/mL	Mycobacterium smegmatis	ATCC 607	inhibition			0%
O=C(NCc1ccc(N2CCOCC2)cc1)c1c(Cl)nc2ccccn12		Mycobacterium ulcerans		MIC50		fluorescence	1–10 µg/mL
COc1ccc(-c2c(-c3ccc(O)cc3O)n[nH]c2C(F)(F)F)cc1		Mycobacterium marinum		MIC		visual reading	>50 µg/mL
CN(C)c1ccc(CNC(=O)c2c(Cl)nc3ccccn23)cc1F		Mycobacterium ulcerans		MIC50		fluorescence	0.1–1 µg/mL
NNC(=O)c1ccncc1		Mycobacterium bovis	BCG (PMV261::KASAB)	MIC			0.05 µg/mL
CCCCCC(CC(=O)N1N=CCCC1C(=O)N[C@H]1COC(=O)C2C[C@@H](C)CNN2C(=O)[C@H](C)NC(=O)[C@@H](CC(C)C)NC1=O)C(=O)O		Mycobacterium aurum	SB66	MIC			6.3 µg/mL
COc1ccc(-c2csc(N3N=C(c4cccs4)CC3c3ccc4c(c3)OCO4)n2)cc1	1000 µg/mL	Mycobacterium smegmatis	ATCC 607	inhibition			0%
C[C@H]1COc2c(N3CCN(C)CC3)c(F)cc3c(=O)c(C(=O)O)cn1c23		Mycobacterium fortuitum	25 isolates	MIC50			2 µg/mL
CC(C)CCOc1ccc(NC(=S)Nc2ccc(OCCC(C)C)cc2)cc1		Mycobacterium bovis	BCG (PMV261)	MIC			0.25–0.5 µg/mL
C[C@H]1c2cccc(O)c2C(O)=C2C(=O)[C@]3(O)C(O)=C(C(N)=O)C(=O)[C@@H](N(C)C)[C@@H]3[C@@H](O)[C@@H]21		Mycoplasma hominis	20 strains	MIC90			0.05 µg/mL
CC[C@H]1OC(=O)[C@H](C)[C@@H](O[C@H]2C[C@@](C)(OC)[C@@H](O)[C@H](C)O2)[C@H](C)[C@@H](O[C@@H]2O[C@H](C)C[C@H](N(C)C)[C@H]2O)[C@](C)(OC)C[C@@H](C)C(=O)[C@H](C)[C@@H](O)[C@]1(C)O		Mycobacterium fortuitum	25 isolates	MBC90			>8 µg/mL
Cc1ccc2oc(=O)n(-c3ccc(C(F)(F)F)cc3)c(=S)c2c1		Mycobacterium kansasii	My 235/80	MIC	14 d		16 µM
O=[N+]([O-])c1ccc(COc2ccc(-c3n[nH]c(C(F)(F)F)c3-c3ccc(Cl)cc3)c(O)c2)cc1		Mycobacterium marinum		MIC		visual reading	50 µg/mL
Fc1cccc(-n2c(=S)oc3ccc(Cl)cc3c2=S)c1		Mycobacterium kansasii	My 235/80	MIC	14 d		8 µM
CCc1cc(C(N)=S)ccn1		Mycobacterium bovis	BCG (PMV261::KASB)	MIC			2 µg/mL
CCCCCCCNC(=O)NNC(=O)c1ccncc1		Mycobacterium kansasii	My 6509/96	MIC100	7 d	broth dilution	32 µM
NNC(=O)c1ccncc1		Mycobacterium avium complex	N-945 (HIV+)	MIC			1 µg/mL
Cc1ccc(-n2c(=S)oc3ccc(F)cc3c2=S)cc1		Mycobacterium kansasii	My 235/80	MIC	14 d		8 µM
CCCCCCCCN(CCCCCCCC)C(=O)NC(CCC(=O)O)(CCC(=O)O)CCC(=O)O		Mycobacterium marinum	ATCC 927	MIC			18 µg/mL
O=C(NNC(=O)c1ccncc1)Nc1c(Cl)cc(Cl)cc1Cl		Mycobacterium kansasii	My 6509/96	MIC100	14 d	broth dilution	125 µM
CCCCCCCCCC(CCCCCCCCC)OC(=O)NC(CCC(=O)O)(CCC(=O)O)CCC(=O)O		Mycobacterium marinum	ATCC 927	MIC			285 µg/mL
COc1ccc2oc(=O)n(-c3ccc(Br)cc3)c(=S)c2c1		Mycobacterium kansasii	6509/96	MIC	21 d		32 µM
Oc1ccc(-c2n[nH]c(C(F)(F)F)c2-c2ccc(Cl)cc2)c(O)c1		Mycobacterium marinum		MIC		visual reading	>50 µg/mL
CCCCCCCCCCCCCC(=O)NC(CCC(=O)O)(CCC(=O)O)CCC(=O)O		Mycobacterium marinum	ATCC 927	MIC			288 µg/mL
CCCCCCCN1C(=O)N(Cc2ccccc2)C(=O)C[C@H]1C1OC2OC(C)(C)OC2[C@H]1OC		Mycobacterium aurum		MIC			>25 µg/mL
COc1ccc(/C=N/n2c(C)nn(Cc3cn(CCCCCCn4cc(Cn5nc(C)n(/N=C/c6ccc(OC)cc6)c5=O)nn4)nn3)c2=O)cc1	20 mg/mL	Mycobacterium luteus		zone		agar diffusion	0.6 mm
CC1(C)N=C(N)N=C(N)N1OCCCOc1cc(Cl)c(Cl)cc1Cl		Mycobacterium avium complex	DW13	MIC			4 µg/mL
CCCCCCCCCCCCCCCCN1C(=O)N(c2ccccc2)C(=O)C[C@H]1C1OC2OC(C)(C)OC2[C@H]1OC		Mycobacterium aurum		MIC			>25 µg/mL
COc1ccc(CCn2c(C)nn(Cc3cn(CCCn4cc(Cn5nc(C)n(CCc6ccc(OC)cc6)c5=O)nn4)nn3)c2=O)cc1	20 mg/mL	Mycobacterium luteus		zone		agar diffusion	1.313 mm
CC[C@H]1OC(=O)[C@H](C)[C@@H](O[C@H]2C[C@@](C)(OC)[C@@H](O)[C@H](C)O2)[C@H](C)[C@@H](O[C@@H]2O[C@H](C)C[C@H](N(C)C)[C@H]2O)[C@](C)(OC)C[C@@H](C)C(=O)[C@H](C)[C@@H](O)[C@]1(C)O		Mycobacterium avium complex	N-951 (HIV+)	MIC			4 µg/mL
O=C(NNC(=O)c1ccncc1)Nc1ccc(Cl)c(Cl)c1		Mycobacterium kansasii	My 235/80	MIC100	21 d	broth dilution	125 µM
CC1(C)N=C(N)N=C(N)N1OCCCOc1cc(Cl)c(Cl)cc1Cl		Mycobacterium avium complex	F8074	MIC			2 µg/mL
CC(NCCNC(C)C(C)(C)C)C(C)(C)C	250 µg/mL	Mycobacterium smegmatis	ATCC 607	inhibition			0%
Cc1noc(NS(=O)(=O)c2ccc(N)cc2)c1C	300 µg/mL	Mycobacterium luteus		zone		agar diffusion	1 mm

Repeating the final 4 entries:

smiles | tested at | species | strain or isolate | measure | conditions | read by | value
O=C(NNC(=O)c1ccncc1)Nc1ccc(Cl)c(Cl)c1 |  | Mycobacterium kansasii | My 235/80 | MIC100 | 21 d | broth dilution | 125 µM
CC1(C)N=C(N)N=C(N)N1OCCCOc1cc(Cl)c(Cl)cc1Cl |  | Mycobacterium avium complex | F8074 | MIC |  |  | 2 µg/mL
CC(NCCNC(C)C(C)(C)C)C(C)(C)C | 250 µg/mL | Mycobacterium smegmatis | ATCC 607 | inhibition |  |  | 0%
Cc1noc(NS(=O)(=O)c2ccc(N)cc2)c1C | 300 µg/mL | Mycobacterium luteus |  | zone |  | agar diffusion | 1 mm